Reference: PMC11042316, “Tetracistronic Minigenomes Elucidate a Functional Promoter for Ghana Virus and Unveils Cedar Virus Replicase Promiscuity for all Henipaviruses” (2024)

Sequences of proteins named here, by UniProt entry; tags and fusion partners are left off. A change or cut given only in a name is not applied to a line headed by its entry.
UniProt Q997F0: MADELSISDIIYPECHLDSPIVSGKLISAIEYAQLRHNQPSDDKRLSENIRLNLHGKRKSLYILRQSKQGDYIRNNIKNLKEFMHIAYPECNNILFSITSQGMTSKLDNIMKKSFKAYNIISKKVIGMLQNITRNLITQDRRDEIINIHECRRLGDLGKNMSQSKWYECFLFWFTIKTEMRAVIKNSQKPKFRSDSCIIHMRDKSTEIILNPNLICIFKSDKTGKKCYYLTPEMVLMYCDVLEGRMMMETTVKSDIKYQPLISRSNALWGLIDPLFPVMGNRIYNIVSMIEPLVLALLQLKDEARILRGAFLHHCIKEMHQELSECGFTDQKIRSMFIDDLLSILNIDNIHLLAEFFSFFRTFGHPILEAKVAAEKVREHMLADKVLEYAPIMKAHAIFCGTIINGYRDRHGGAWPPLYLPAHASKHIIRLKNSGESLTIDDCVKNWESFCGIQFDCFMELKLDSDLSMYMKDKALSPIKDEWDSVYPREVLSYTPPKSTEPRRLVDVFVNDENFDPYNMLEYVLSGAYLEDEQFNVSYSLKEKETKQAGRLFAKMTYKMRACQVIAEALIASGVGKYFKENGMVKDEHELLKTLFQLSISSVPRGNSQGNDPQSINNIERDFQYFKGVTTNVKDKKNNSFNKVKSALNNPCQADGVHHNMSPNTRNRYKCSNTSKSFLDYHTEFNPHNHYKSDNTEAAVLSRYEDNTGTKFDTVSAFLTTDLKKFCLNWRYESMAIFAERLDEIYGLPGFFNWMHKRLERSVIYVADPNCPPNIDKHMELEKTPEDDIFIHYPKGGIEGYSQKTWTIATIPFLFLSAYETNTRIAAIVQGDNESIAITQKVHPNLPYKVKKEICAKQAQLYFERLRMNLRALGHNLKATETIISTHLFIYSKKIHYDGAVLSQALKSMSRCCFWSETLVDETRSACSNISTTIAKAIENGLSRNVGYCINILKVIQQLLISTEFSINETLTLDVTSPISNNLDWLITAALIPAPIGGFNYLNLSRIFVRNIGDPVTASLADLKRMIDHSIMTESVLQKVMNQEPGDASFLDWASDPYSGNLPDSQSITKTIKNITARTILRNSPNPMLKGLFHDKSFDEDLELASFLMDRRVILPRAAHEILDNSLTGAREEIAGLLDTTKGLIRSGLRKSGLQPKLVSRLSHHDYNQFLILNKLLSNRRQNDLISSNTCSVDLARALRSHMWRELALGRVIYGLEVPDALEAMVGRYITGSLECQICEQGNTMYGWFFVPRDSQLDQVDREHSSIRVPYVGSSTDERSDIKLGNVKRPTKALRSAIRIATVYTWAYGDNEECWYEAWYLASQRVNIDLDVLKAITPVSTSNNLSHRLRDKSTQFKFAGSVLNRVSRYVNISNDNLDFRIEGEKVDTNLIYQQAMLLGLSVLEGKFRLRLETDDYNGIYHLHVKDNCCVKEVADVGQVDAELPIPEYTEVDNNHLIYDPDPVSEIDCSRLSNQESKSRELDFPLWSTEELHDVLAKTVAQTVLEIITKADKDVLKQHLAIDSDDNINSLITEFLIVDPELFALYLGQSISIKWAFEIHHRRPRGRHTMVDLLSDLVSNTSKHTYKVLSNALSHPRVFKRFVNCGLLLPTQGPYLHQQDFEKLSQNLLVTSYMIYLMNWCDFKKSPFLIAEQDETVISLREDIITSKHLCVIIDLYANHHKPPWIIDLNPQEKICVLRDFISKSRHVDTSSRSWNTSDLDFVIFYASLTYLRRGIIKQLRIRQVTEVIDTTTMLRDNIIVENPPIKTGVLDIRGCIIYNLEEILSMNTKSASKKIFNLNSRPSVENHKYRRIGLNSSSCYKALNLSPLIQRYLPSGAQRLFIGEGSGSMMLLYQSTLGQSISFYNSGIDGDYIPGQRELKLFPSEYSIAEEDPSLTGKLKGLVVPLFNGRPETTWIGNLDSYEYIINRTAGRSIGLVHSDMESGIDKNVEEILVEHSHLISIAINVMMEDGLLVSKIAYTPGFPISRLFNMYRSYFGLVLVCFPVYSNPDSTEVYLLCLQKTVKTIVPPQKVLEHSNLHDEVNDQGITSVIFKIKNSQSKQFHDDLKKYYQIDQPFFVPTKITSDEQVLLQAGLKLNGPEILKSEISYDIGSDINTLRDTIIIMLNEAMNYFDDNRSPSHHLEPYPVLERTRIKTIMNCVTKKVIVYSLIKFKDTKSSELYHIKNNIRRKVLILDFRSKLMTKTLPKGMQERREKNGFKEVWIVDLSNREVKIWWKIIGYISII

Target: NiV vRdRp / replicase (NiV-N, -P, -L) (Henipavirus nipahense, UniProt Q997F0)

O=c1ccn([C@@H]2O[C@](F)(CO)[C@@H](O)[C@H]2O)c(=O)[nH]1
IC50: 3.6 µM
